According to PubChem BioAssay AID602233 (National Center for Advancing Translational Sciences (NCATS), 2012):
Only a part is listed here, and it is no random draw. Calls of active or inactive are those of the source. Calls come from the whole dose curve; as a rule, active = well fitted inhibition curve with a large enough effect; inconclusive = small, poorly fitted or top-dose-only effect; inactive = no such curve, though single readings can be large or run the other way.

What follows are molecules tested against Phosphoglycerate kinase, glycosomal (Trypanosoma brucei brucei) (UniProt P07378) (assay: qHTS Assay to Find Inhibitors of Phosphoglycerate Kinase). Conditions: PGK/GAPDH coupled, Kinase-Glo luminescence, 60 min; activity change, negative = inhibition: at 57.5 µM (top of the series) unless noted.
Text: Several species of the Trypanosomatidae family of parasitic protozoans cause a spectrum of diseases throughout the tropical and subtropical world. Sleeping sickness, caused by two subspecies of Trypanosoma brucei, is endemic to areas of sub-Saharan Africa, while Chagas disease, a manifestation of Trypanosoma cruzi infection, is prevalent throughout Central and South America. In addition, many species of Leishmania are responsible for a range of cutaneous and visceral diseases, causing ulcers, destructive lesions and kalaazar, a lethal infection of the viscera. Collectively, these organisms infect 30 million people worldwide (~500 million live in endemic areas), and account for ~130,000 deaths annually. Given their debilitating and prevalent nature, trypanosomatid parasites impose a heavy medical, economic and social burden on entire populations, primarily in the developing world. The problem is further exacerbated by the fact that existing treatments have progressed little in the past 50 years, and current drugs show high toxicity and poor efficacy. […] Blood-stream stages of T. brucei are entirely dependent on glycolysis as a source of ATP, and the tricarboxylic acid cycle and oxidative phosphorylation are both repressed. Glycolysis in axenically cultured T. cruzi, representing the intracellular pathogenic stage, is also essential for these parasites. […] Previous studies have shown that the glycolytic enzyme, phosphoglycerate kinase (PGK), is a viable target for drugs to kill these parasites. […] NIH Molecular Libraries Probe Production Network [MLPCN] NIH Chemical Genomics Center [NCGC] MLPCN Grant: R03 MH093212 PI Name: Malcolm Walkinshaw, University of Edinburgh
3ul of substrate/PGK buffer (columns 1,2,5-48) are dispensed into Greiner white solid bottom 1536-well assay plates; columns 3-4 receive only TEA buffer as 0x PGK controls. Compounds are then transferred via Kalypsys pin tool equipped with 1536-pin array (10nl slotted pins, V&P Scientific, San Diego, CA). Following addition of compound, 1ul of GAPDH (100nM final concentration, all columns) is added to initiate the reaction (this upstream coupling enzyme is necessary for in-well production of PGK substrate, 1,3-bisphosphoglycerate (1,3-BPG), which is unstable and not commercially available). The plates are then incubated at room temperature for 60 minutes. Kinase-Glo Plus reagent is added (2ul) and plates incubated for 10 minutes, before being transferred to a ViewLux high-throughput CCD imager (PerkinElmer) wherein single end-point measurements of luminescence are acquired using a clear filter. All reagents are diluted in an assay buffer consisting of 100mM TEA (pH 7.6), 5mM MgCl2 and 0.01% Tween-20.
% is set by controls: 0 for no effect and ±100 for the full control effect.
Note: nearly all actives have a fitted effect of over 60% in size.

Compound | activity change, negative = inhibition
CC(C)(C)C(=O)NC(Sc1ccccc1)C(Cl)(Cl)Cl (centres undefined) | inactive: 2.92%
CCc1cc(O)c([N+](=O)[O-])c(C)c1[N+](=O)[O-] | inactive: 6.47%
O=P1(Nc2nc3ccc(Cl)cc3s2)COc2ccccc2O1 (centres undefined) | inactive
CCOc1ccc(C2=NCC(CBr)S2)cc1 (centres undefined) | inactive
CC(=O)Nc1ccc([As](=O)(O)O)c(O)c1 | inactive
CC(=O)Nc1ccc(Oc2c([N+](=O)[O-])cc([N+](=O)[O-])cc2[N+](=O)[O-])cc1 | inactive: -8.74%
Cc1ccccc1CN(C)C(=O)COC(=O)C(O)(c1ccccc1)c1ccccc1 | inactive: -7.61%
C[C@H]1OP(=O)(Oc2ccccc2)C[C@@H]2O[C@@H]21 (some centres undefined) | inactive: -1.44%
C[C@@H]1C=CCP(=O)(Oc2ccccc2)O1 (some centres undefined) | inactive: -3.15%
CC(=O)c1ccc(N2CC2c2ccncc2)cc1 (centres undefined) | inactive: -4.62%
N#C/C(=C\c1ccc(N(CCBr)CCBr)cc1)C(N)=O | inactive: -10.2%
COC(=O)C1(C)COP(=O)(NCc2ccccc2)OC1 (centres undefined) | inactive: -4.32%
O=P1(N(CCCl)CCCl)OCCC2CCCCN21 (centres undefined) | inactive: -0.587%
c1ccc(-c2nn[nH]n2)c(-c2nn[nH]n2)c1 | inactive: 5.42%
Cc1ccc(NP(=O)(Oc2cccc(C)c2)Oc2cccc(C)c2)nc1 | inactive: 1.45%
CCNC(=S)/N=C(\N)N[N+](=O)[O-] | inactive: 0.77%
O=C(NC1CCS(=O)(=O)C1)NP(=S)(Oc1ccccc1)Oc1ccccc1 (centres undefined) | inactive: -7.02%
CC(NC(=O)COC(=O)C(O)(c1ccccc1)c1ccccc1)c1ccccc1 (centres undefined) | inactive: -1.21%
Cc1ccccc1OP(=O)(Nc1ccccn1)Oc1ccccc1C | inactive
O=c1c2cc([N+](=O)[O-])ccc2[nH]c2c([N+](=O)[O-])cc([N+](=O)[O-])cc12 | inactive: -9.64%
CN(C)C(=O)Oc1noc2ccccc12 | inactive: -0.834%
O=C(OC1CN2CCC1CC2)c1ccccc1 (centres undefined) | inactive: 7.82%
CCC(=O)N1C2C3N(C(=O)CC)C1C1N(C(=O)CC)C(C(N1C(=O)CC)N3C(=O)CC)N2C(=O)CC | inactive: 6.09%
COC(=O)c1cc2c(s1)N=C(c1ccccc1)N(C)P2(=O)N1CCOCC1 (centres undefined) | inactive: 12.1%
CC(=O)NC(SC(=S)N(CC(C)C)CC(C)C)C(Cl)(Cl)Cl (centres undefined) | inactive: 7.19%
Cc1ccc(OP(=O)(Nc2ccccn2)Oc2ccc(C)cc2)cc1 | inactive: -2.26%

Compound | activity change, negative = inhibition
O=P(Nc1nc2ccccc2s1)(c1ccccc1)c1ccccc1 | inactive: -3.22%
C[C@H]1OP(=O)(Oc2ccccc2)[C@H](O)[C@H](O)[C@H]1N=[N+]=[N-] (some centres undefined) | inactive: -12.7%
O=P(Nc1ccccn1)(c1ccc(Br)cc1)c1ccc(Br)cc1 | inactive
CN(C)C1(CNC(=O)c2ccc(Cl)c(S(N)(=O)=O)c2)CCCCC1 | inactive: 4.04%
COc1ccc(N)c([N+](=O)[O-])c1[N+](=O)[O-] | inactive: -13.5%
O=C(OC1CN2CCC1CC2)c1cccc(Cl)c1 (centres undefined) | inactive: 11.1%
C(Cc1nn[nH]n1)Cc1nn[nH]n1 | inactive: 3.74%
Nc1ccc([As](=O)(O)c2ccc([N+](=O)[O-])cc2)cc1 | inactive: -7.81%
O=[As](O)(c1ccccc1)c1ccc(O)cc1 | inactive: -11.8%
O=[N+]([O-])c1ccc(O)c(/C=N/Nc2ccc([N+](=O)[O-])cc2[N+](=O)[O-])c1 | inactive: -1.14%
CC(=O)NC(SC(=S)N(C)C)C(Cl)(Cl)Cl (centres undefined) | inactive: -4.33%
O=[N+]([O-])c1ncn(CCn2cnc([N+](=O)[O-])n2)n1 | inactive
c1nnnn1CCn1cnnn1 | inactive: -1.65%
CC(C)C(=O)NC(Sc1ccccc1)C(Cl)(Cl)Cl (centres undefined) | inactive: -4.65%
O=P(Nc1nccs1)(c1ccccc1)c1ccccc1 | inactive: 9.8%
Cc1ccc(NP(=O)(Oc2ccccc2)Oc2ccccc2)nc1 | inactive: -0.727%
CCc1nc2c(n1)c1c(non1O)c1c2no[n+]1[O-] | inactive
O=[N+]([O-])c1cc([N+](=O)[O-])c(CCNc2ccccc2)c([N+](=O)[O-])c1 | inactive: 0.91%
O=[N+]([O-])c1cccc2n[nH]nc12 | inactive: -3.21%
CC(=O)N1C2C3N(C(C)=O)C1C1N(C(C)=O)C(C(N1C(C)=O)N3C(C)=O)N2C(C)=O | inactive
COc1ccc(C2=NCC(CBr)S2)cc1 (centres undefined) | inactive: -6.47%
CC1CCN(C(=O)Oc2c(Cl)cc(Cl)c3cccnc23)CC1 | inactive: 0.983%
c1cc(-c2nn[nH]n2)ccc1-c1nn[nH]n1 | inactive: -1.06%
CC(C)c1nc(Nc2ccccc2)n(P(=O)(N(C)C)N(C)C)n1 | inactive: -9.52%
CC(C)=N/N=C(\N)N[N+](=O)[O-] | inactive
CN(C)C(=O)OCCc1n(C)cc[n+]1C | inactive: 4.25%

Compound | activity change, negative = inhibition
CCN(/C(=N/P(=O)(N1CCOCC1)N1CCOCC1)N1CCOCC1)c1ccc(OC)cc1 | inactive: -1.39%
Nc1ccc([As](=O)(O)c2ccc(N)cc2)cc1 | inactive: 21.5%
O=C(Nc1cc([As](=O)(O)O)ccc1O)c1ccccc1 | inactive: -2.25%
O=P1(N(CCCl)CCCl)OCCCS1 (centres undefined) | inactive: 2.46%
O=C(O)CNc1ccc([As](=O)(O)O)cc1 | inactive
COC(=O)C1(C)COP(=O)(Nc2ccccc2)OC1 (centres undefined) | inactive: -0.454%
O=[N+]([O-])c1cccc(NC2=NCC(CBr)S2)c1 (centres undefined) | inactive: 0.777%
O=[N+]([O-])c1ncn(CCn2ncnc2[N+](=O)[O-])n1 | inactive: -2.28%
CC(C)(C)C(=O)NC(Sc1ccncn1)C(Cl)(Cl)Cl (centres undefined) | inactive: -3.21%
Cc1cc(SC(NC(=O)c2ccc(F)cc2)C(Cl)(Cl)Cl)ncn1 (centres undefined) | inactive: -7.93%
CCOP(=O)(Nc1ccccc1)OCC | inactive: -9.64%
Cc1ccc(NP(=O)(Oc2ccccc2F)Oc2ccccc2F)nc1 | inactive: 6.77%
CN(C(=O)Cc1ccc(Cl)c(Cl)c1)[C@H]1CCCC[C@@H]1N1CCCC1 | inactive: -11.1%
O=P(Nc1nc2ccc(Cl)cc2s1)(c1ccccc1)c1ccccc1 | inactive
CN(C)P(=O)(N(C)C)n1c(Nc2ccccc2)nnc1-c1ccccc1 | inactive
CC(=O)Nc1ccc([As](=O)(O)O)cc1 | inactive: -0.181%
CCCC1OP(N)(=O)OCC1CC (centres undefined) | inactive: -6.89%
Nc1cccc2ccc([As](=O)(O)O)cc12 | inactive: -0.965%
CCN(N=Nc1nonc1N)c1nonc1N | inactive: -3.49%
CN1CCCC(OC(=O)C(c2ccccc2)c2ccccc2)C1 (centres undefined) | inactive: -2.83%
Clc1ccc(Cl)c(NC2=NCC(CBr)S2)c1 (centres undefined) | inactive: 5.89%
COc1ccccc1OP(=O)(Nc1ccc(C)cn1)Oc1ccccc1OC | inactive: -2.24%
Cc1ccc(OP(=O)(Nc2nccs2)Oc2ccc(C)cc2)cc1 | inactive: -6.1%
Cc1ccc(N/C(=N/P(=O)(N2CCOCC2)N2CCOCC2)N2CCOCC2)cc1 | inactive: -2.37%
NC(=O)c1cc([N+](=O)[O-])cc([N+](=O)[O-])c1N | inactive: -12.1%
Oc1ccccc1CNc1ccccn1 | inactive: 2.75% [at 11.5 µM]

Compound | activity change, negative = inhibition
O=C(NC(Sc1ccncn1)C(Cl)(Cl)Cl)c1ccccc1 (centres undefined) | inactive: -5.86%
Nc1cc(N)c2nonc2c1[N+](=O)[O-] | inactive: -17%
CC(C)CC(=O)NC(Sc1ccc(Cl)cc1)C(Cl)(Cl)Cl (centres undefined) | inactive: -8.74%
O=P1(N(CCCl)CCCl)OCCCN1CCCl (centres undefined) | inactive: -5.12%
O=P1(N(CCCl)CCCl)Nc2ccccc2N1 | inactive: 7.95%
COc1ccc2nc(NP(=O)(c3ccccc3)c3ccccc3)sc2c1 | inactive
COc1cc(I)ccc1[As](=O)(O)O | inactive: 10.5%
O=C(OC1CN2CCC1CC2)C12CC3CC(CC(C3)C1)C2 (centres undefined) | inactive: -11.2%
Cc1cc(=O)[nH]c(N[N+](=O)[O-])n1 | inactive: 7.39%
O=[N+]([O-])c1cc(Oc2ccc([N+](=O)[O-])cc2C(F)(F)F)cc([N+](=O)[O-])c1 | inactive: -8.2%
COc1ccc(N/C(=N/P(=O)(N2CCOCC2)N2CCOCC2)N2CCOCC2)cc1 | inactive: 0.731%
Cc1ccc2nc3c(c(C)c2c1)CC(C(Cl)Cl)S3 (centres undefined) | inactive
O=[As](O)(c1ccc(O)cc1)c1ccccc1O | inactive: -8.68%
C[As](=O)(O)c1cccc(C(=O)O)c1 | inactive
O=[N+]([O-])c1ccc(-c2cc([N+](=O)[O-])c(O)c([N+](=O)[O-])c2)cc1 | inactive: -12.4%
COc1cc(C(=O)NCC2(N3CCOCC3)CCCCC2)ccc1OCC(C)C | inactive: 11.3%
CC(C)NC(=O)NP(=O)(Oc1ccccc1)Oc1ccccc1 | inactive: 1.49%
CCN(CC)C(=S)SC(NC=O)C(Cl)(Cl)Cl (centres undefined) | inactive: 3.59%
O=C(OC1CN2CCC1CC2)c1cccc2[nH]cnc12 (centres undefined) | inactive
O=[N+]([O-])c1cc([N+](=O)[O-])c(-c2ccn[nH]2)s1 | inactive: -2.7%
ClCCSc1nnc(-c2cccnc2)o1 | inactive: 11.3%
COC(=O)C1(C)COP(=O)(N2CCCCCC2)OC1 (centres undefined) | inactive: -5.09%
CC(C)c1ccc(OP(=O)(Nc2ccccn2)Oc2ccccc2F)cc1 (centres undefined) | inactive: -2.83%
COP(=O)(OC)N1CC1c1ccccc1 (centres undefined) | inactive
CCCCOc1ccc(C(=O)NCC2(N3CCCCC3)CCCCC2)cc1OC | inactive
Cc1cc(SC(NC(=O)c2ccccc2)C(Cl)(Cl)Cl)nc(C(C)C)n1 (centres undefined) | inactive: 0.238%
